Source: patent US10919935B2, “Antimicrobial peptide derived from myxinidin peptide and uses thereof” (INDUSTRY-ACADEMIC COOPERATION FOUNDATION, CHOSUN UNIVERSITY, priority 2015, dated 2021)
Residues, ends and D or L forms follow the SMILES beside them.

Test: Circular dichroism spectrum in membrane-mimicking solutions
Conditions: peptide 50 μM in PG or PE:PG

## CC[C@H](C)[C@H](NC(=O)[C@H](Cc1c[nH]c2ccccc12)NC(=O)[C@H](CCCCN)NC(=O)[C@@H](NC(=O)[C@@H](N)CCCCN)[C@@H](C)CC)C(=O)N[C@@H](CC(C)C)C(=O)N[C@@H](CCCCN)C(=O)N[C@@H](Cc1ccc(O)cc1)C(=O)N[C@@H](Cc1c[nH]c2ccccc12)C(=O)N[C@@H](CCCCN)C(=O)N[C@@H](Cc1c[nH]c2ccccc12)C(=O)N[C@@H](CO)C(N)=O [Myxinidin 2, KIKWILKYWKWS-NH2] (H-KIKWILKYWKWS-NH2; N-terminus assumed)
  Secondary structure by circular dichroism: an α-helical structure or a β-sheet structure as a secondary structure is formed

## CC[C@H](C)[C@H](NC(=O)[C@H](Cc1c[nH]c2ccccc12)NC(=O)[C@H](CCCNC(=N)N)NC(=O)[C@@H](NC(=O)[C@@H](N)CCCNC(=N)N)[C@@H](C)CC)C(=O)N[C@@H](CC(C)C)C(=O)N[C@@H](CCCNC(=N)N)C(=O)N[C@@H](Cc1ccc(O)cc1)C(=O)N[C@@H](Cc1c[nH]c2ccccc12)C(=O)N[C@@H](CCCNC(=N)N)C(=O)N[C@@H](Cc1c[nH]c2ccccc12)C(=O)N[C@@H](CO)C(N)=O [Myxinidin 3, RIRWILRYWRWS-NH2] (H-RIRWILRYWRWS-NH2; N-terminus assumed)
  Secondary structure by circular dichroism: an α-helical structure or a β-sheet structure as a secondary structure is formed
